Data set [1] concerns L. amazonensis (RFP) amastigotes. Kind of data set: Antiamastigote assay (RFP fluorescence, infected peritoneal macrophages). As to conditions: CC50 in macrophages/IC50 in parasite. In kind it is cell-based, Leishmania amazonensis. As to the method:
Peritoneal macrophages from BALB/c mice were obtained by peritoneal lavage and distributed in 24-well plates at 2 × 10^6 cells/mL in RPMI medium (Cultilab) containing 10% FBS and a 0.5% penicillin and streptomycin solution (complete RPMI). The plates were incubated for 1 h at 37 °C and 5% CO2, washed with phosphate-buffered saline (PBS), and then reincubated in complete RPMI medium overnight. The cells were washed again with PBS and infected with stationary growth phase L. amazonensis (RFP) promastigotes at a 10:1 ratio for 4 h at 33 °C. The plates were washed with PBS and the inhibitors were added at different concentrations and incubated for 72 h. After this time, each well was scraped to remove attached cells and the reading was taken with a spectrofluorimeter (FLx800, BioTek Instruments, Winooski, VT, USA) at 530 nm and 590 nm of excitation and emission, respectively. […] All assays were performed in triplicate and repeated three times. Results were calculated as the percentage of amastigote survival compared with the nontreated control group, and IC50 values were determined using GraphPad Prism 8 software.

Data set [2] concerns Leishmania amazonensis-WT promastigotes. Kind of data set: Antipromastigote assay (MTT). To be noted: CC50 in macrophages/IC50 in parasite. In kind it is cell-based. As for the experimental part: Leishmania amazonensis–WT promastigotes, in the logarithmic phase of growth, were transferred to 96-well culture plates (final concentration 2 × 10^6 cells/mL) and exposed to different concentrations of inhbitors during 72 h at 25 °C. The cell viability was evaluated by the 3-(4,5-dimethylthiazol-2-yl)-2,5 diphenyltetrazolium bromide (MTT) method (obtained from Sigma-Aldrich). The inhibitory concentration of 50% of parasite growth (IC50) values were calculated using GraphPad Prism 8 software […]. Three independent experiments in triplicate were performed. Amphotericin B (Cristália, São Paulo, SP, Brazil) was used as a reference drug.

On to PF-429242, for which, in data set [1], the “Selectivity index (SI) Amastigote” value was 1.6. Besides, in data set [2], the “Selectivity index (SI) Promastigote” value came to 227.8.
In the case of `Cc1ccc(S(=O)(=O)N[C@@H](CCCCN)C(=O)CCl)cc1` [TLCK], the “Selectivity index (SI) Amastigote” value in data set [1] worked out at 0.7. The “Selectivity index (SI) Promastigote” value in data set [2] was 2.0.

The record behind these values is PMC11760092, “Pretreatment with serine protease inhibitors impairs Leishmania amazonensis survival on macrophages” (Parasites & Vectors, 2025).
